A mixed list of measured activities; the numbers were collected in NIAID ChemDB.

Shared fields: tests in culture; agent: HIV-1; cell line: CEM; endpoint: EC50

Blank or dashed fields: not listed here.

compound,read by,changes,strain or isolate,result
Cc1cc(C)cc(Cc2c(C(C)C)c(=O)[nH]c(=O)n2COCCO)c1,syncytia,Nevirapine resistant (RT Y181C),IIIB,2.8 µM
CCCCC(CC)COC(=O)c1cc(NC(=S)OC(C)C)ccc1Cl,syncytia,RT-L100I,-,22.02 µM
CC(C)C[C@@H](CCC(=O)O)NC(=O)c1ccccc1SSc1ccccc1C(=O)N[C@H](CCC(=O)O)CC(C)C,cytopathic effect / XTT,-,IIIB,4 µM
CC(=O)Nc1nc(C)c(S(=O)(=O)N(CC(C)C)C[C@@H](O)[C@H](Cc2ccccc2)NC(=O)[C@H](CC(N)=O)NC(=O)c2ccc3ccccc3n2)s1,p24,-,IIIB,<1 µM
C/C=C\COc1cc(NC(=S)OC(C)C)ccc1Cl,syncytia,RT-E138K,-,0.3 µM
CC(C)=CCOc1cc(NC(=S)c2ccsc2C)ccc1Cl,syncytia,RT-Y181C,-,0.037 µM
CCCCOC(=O)c1cc(NC(=O)C2=C(C)OCCS2)ccc1Cl,syncytia,RT-E138K,TSAO-resistant (RT E138K),3.5 µg/mL
CCC1=C(c2nc(C3CCCCC3)cs2)C(c2ccccc2OC)NC(=O)N1,p24 / ELISA,-,-,>5 µM
CC(C)OC(=S)Nc1ccc(Cl)c(C(=O)OCc2ccccc2)c1,syncytia,RT-V106A,-,23.36 µM
O=C(N[C@@H](Cc1ccccc1)C(=O)C(F)(F)C(Cc1ccccc1)NS(=O)(=O)c1ccccc1)O[C@H]1CCOC1,p24,-,IIIB,<1 µM
Cc1occc1C(=O)Nc1ccc(Cl)c(SCC=C(Cl)Cl)c1,syncytia,RT-E138K,TSAO-m3T-resistant (RT E138K),0.68 µg/mL
CC(C)CN(CC(O)CN(CC(C)C)S(=O)(=O)c1ccccc1)S(=O)(=O)c1ccccc1,p24,-,IIIB,<1 µM
CC(C)(C)OC(=O)c1cc(NC(=S)OC(C)(C)C)ccc1Cl,syncytia,-,IIIB,1.89 µM
C=CCOC(=O)N[C@@H](Cc1ccccc1)[C@H](O)CN(CC(C)C)S(=O)(=O)c1ccc(Cl)c(Cl)c1,p24,-,IIIB,<1.001 µM
CCOC(=O)C(C)Oc1cc(NC(=S)OC(C)C)ccc1Cl,syncytia,RT-V106A,-,4.337 µM
C=C(C)CN(C[C@@H](O)[C@H](Cc1ccccc1)NC(=O)O[C@@H]1CCOC1)S(=O)(=O)c1ccc(F)cc1,p24,-,IIIB,<1.001 µM
COC(=O)C[C@H](CCCCNC(=O)OCc1ccccc1)NC(=O)c1ccccc1SSc1ccccc1C(=O)N[C@@H](CCCCNC(=O)OCc1ccccc1)CC(=O)OC,cytopathic effect / XTT,-,IIIB,>16 µM
CCOC(=O)c1cc(NC(=S)c2ccoc2C)ccc1C,syncytia,RT-Y181C,-,1.9 µM
CC(C)OC(=O)c1cc(NC(=S)OCC2(C)COC2)ccc1Cl,syncytia,RT-L100I,-,>29.94 µM
CC(C)CN(C[C@@H](O)[C@H](Cc1ccccc1)NC(=O)[C@@H](NC(=O)OCc1ccccn1)C(C)C)S(=O)(=O)c1ccc(F)cc1,p24,-,IIIB,<1 µM
CCC1=C(C(=O)CCC2CCCCCC2)[C@H](c2ccc(OC(C)=O)c(Cl)c2)NC(=O)N1,p24 / ELISA,-,-,≤1 µM
CC(C)CN(C(=O)C(=O)C(=O)C(Cc1ccccc1)NC(=O)O[C@H]1CCOC1)S(=O)(=O)c1ccccc1,p24,-,IIIB,<1 µM
CC(C)CN(C[C@@H](O)[C@H](Cc1ccccc1)NC(=O)OCC1CCOC1)S(=O)(=O)c1ccc(F)cc1,p24,-,IIIB,<1 µM
Cc1ccsc1C(=S)Nc1ccc(Cl)c(C(=O)OC(C)C)c1,syncytia,-,IIIB,0.06 µM
CC(C)OC(=O)c1cc(NC(=S)OC(C)C)ccc1Cl,syncytia,RT-Y181C,IIIB,1.9 µM
C[Si](C)(C)C#CC1=C(C(=O)OCC2CCCCC2)C(c2cccc([N+](=O)[O-])c2)NC(=O)N1,p24 / ELISA,-,-,1–5 µM
CC1=C(C(=O)Nc2ccc(Cl)c(C(=O)OC3CCCC3)c2)SCCO1,syncytia,-,IIIB,0.02 µg/mL
COC(=O)N[C@@H](Cc1ccccc1)[C@H](O)CN(CC(C)C)S(=O)(=O)c1ccc(Cl)c(Cl)c1,p24,-,IIIB,<1.001 µM
CCCCOC(=O)c1cc(NC(=S)OC(C)C)ccc1Cl,syncytia,-,IIIB,0.127 µM
COc1ccc(NC(=O)c2ccoc2C)cc1OCC=C(Cl)Cl,syncytia,RT-Y181C,Pyridone-resistant (RT Y181C),8 µg/mL
CC(C)CN(C[C@@H](O)[C@H](Cc1ccccc1)NC(=O)OCC1CCOC1)S(=O)(=O)c1ccc(F)cc1,p24,-,IIIB,<0.101 µM
CO/N=C/c1cc(NC(=S)c2ccoc2C)ccc1OC,syncytia,RT-L100I,-,0.495 µM
COc1ccc(NC(=S)OC(C)C)cc1CC(=O)OC(C)C,syncytia,RT-V106A,-,0.739 µM
Nc1ccc(C2NC(=O)NC(C3CC3)=C2C(=O)OCC2CCCCC2)cc1,p24 / ELISA,-,-,>5 µM
Cc1occc1C(=S)Nc1ccc(Cl)c(/C=N/OC(C)(C)C)c1,syncytia,RT-K103N,IIIB,1.14 µM
CC1=C(C(=S)Nc2ccc(Cl)c(/C=N/OC(C)(C)C)c2)CCO1,syncytia,RT-V106A,-,0.081 µM
CCc1c(Sc2ccccc2)n(COCc2ccccc2)c(=S)[nH]c1=O,syncytia,RT-Y181C,IIIB,0.39 µM
CCC1=C(C(=O)NCC(O)C2CCCCC2)C(c2cccc(O)c2)NC(=O)N1,p24 / ELISA,-,-,>5 µM
CC[C@H](C)[C@H](NC(=O)c1ccccc1SSc1ccccc1C(=O)N[C@H](C(=O)OC(C)(C)C)[C@@H](C)CC)C(=O)OC(C)(C)C,cytopathic effect / XTT,-,IIIB,>95 µM
O=C1N[C@H](COC(=O)N[C@@H](Cc2ccccc2)[C@H](O)CN(CC2CCCC2)S(=O)(=O)c2ccc(Cl)cc2)CO1,p24,-,IIIB,<1 µM
CC[C@H](C)[C@@H](CCC(=O)O)NC(=O)c1ccccc1SSc1ccccc1C(=O)N[C@H](CCC(=O)O)[C@@H](C)CC,cytopathic effect / XTT,-,IIIB,4.9 µM
CC(C)CN(C[C@@H](O)[C@H](Cc1ccccc1)NC(=O)OC(C)(C)C)S(=O)(=O)c1cccc(F)c1,p24,-,IIIB,<10 µM
CC1=C(C(=O)Nc2ccc(Cl)c(OCC=C(Cl)Cl)c2)SCCO1,syncytia,RT-K103N,TIBO R82913-resistant (RT K103N),2 µg/mL
CCC(CC)COC(=O)c1cc(NC(=S)OC(C)C)ccc1Cl,syncytia,RT-E138K,-,1.397 µM
C/C(Cl)=C/COc1cc(NC(=O)c2ccoc2C)ccc1Cl,syncytia,-,IIIB,0.045 µg/mL
CCC1=C(C(=O)OCC2CCCCC2)C(c2ccc(O)c(F)c2)NC(=O)N1,p24 / ELISA,-,-,≤1 µM
CCOC(=O)c1cc(NC(=S)OC(C)C)ccc1C,syncytia,RT-L100I,-,24.88 µM
COCC1=C(C(=O)Nc2ccc(Cl)c(C(=O)OC(C)C)c2)SCCO1,syncytia,RT-E138K,TSAO-resistant (RT E138K),3.5 µg/mL
CCOCn1c(Sc2cc(C)cc(C)c2)c(CC)c(=O)[nH]c1=O,syncytia,RT-Y181I,IIIB,0.6 µM
O=C(O)C[C@@H](NC(=O)c1ccccc1SSc1ccccc1C(=O)N[C@H](CC(=O)O)C1CCCCC1)C1CCCCC1,cytopathic effect / XTT,-,IIIB,4.3 µM
Cc1occc1C(=S)Nc1ccc(Cl)c(C(=O)OC(C)C)c1,syncytia,RT-L100I,-,1.7 µM
NC(=O)C[C@H](NC(=O)c1ccccc1SSc1ccccc1C(=O)N[C@@H](CC(N)=O)C(=O)O)C(=O)O,cytopathic effect / XTT,-,IIIB,51 µM
CC(C)c1c(Sc2ccccc2)n(COCc2ccccc2)c(=S)[nH]c1=O,syncytia,-,IIIB,0.004 µM
CC1=C(C(=O)Nc2cc(Cl)cc(C(=O)OC(C)C)c2)SCCO1,syncytia,RT-Y181C,PYR-resistant (RT Y181C),5.5 µg/mL
CN1CCN(C(=O)c2ccc3c(=O)c4ccccc4[nH]c3c2)CC1,syncytia,RT-Y181C,-,1.347 µM
CCc1c(Sc2cc(C)cc(C)c2)n(COCc2ccccc2)c(=O)[nH]c1=O,syncytia,RT-E138K,IIIB,0.009 µM
C=C(C)COc1cc(NC(=S)OC(C)C)ccc1Cl,syncytia,RT-Y181C,-,>3.335 µM
CC(C)OC(=O)c1cc(NC(=S)c2ccco2)ccc1Cl,syncytia,-,IIIB,1.4 µM
C=C(Cl)COc1cc(NC(=S)c2ccoc2C)ccc1C,syncytia,RT-L100I,TIBO R82150-resistant (RT L100I),0.95 µg/mL
COC(=S)Nc1ccc(Cl)c(C(=O)OC(C)C)c1,syncytia,RT-E138K,-,>34.75 µM
CCOCn1c(Cc2cc(C)cc(C)c2)c(CC)c(=O)[nH]c1=O,syncytia,RT-E138K,IIIB,0.009 µM
COc1ccc(S(=O)(=O)N(CC(C)C)C[C@@H](O)CCN(CC2CCCC2)S(=O)(=O)Cc2cc[nH]c2)cc1,p24,-,IIIB,<1 µM
CC(C)[C@@H](/C=C/CO)NC(=O)c1ccccc1SSc1ccccc1C(=O)N[C@H](/C=C/CO)C(C)C,cytopathic effect / XTT,-,IIIB,>9 µM
CC(C)CN(C[C@@H](O)[C@H](Cc1ccccc1)NC(=O)O[C@H]1CCOC1)S(=O)(=O)c1ccc(-c2ccon2)s1,p24,-,IIIB,<0.101 µM
COc1ccc(NC(=S)c2ccsc2C)cc1OCC=C(Cl)Cl,syncytia,RT-K103N,TIBO R82913-resistant (RT K103N),1.6 µg/mL
CSc1ccc(NC(=S)OC(C)C)cc1C(=O)OC(C)C,syncytia,RT-E138K,-,2.229 µM
COc1ccc(S(=O)(=O)N(CC(O)CN(Cc2ccccc2)C(=O)O[C@@H]2CCOC2)CC2CCCC2)cc1,p24,-,IIIB,<1 µM
CC(C)OC(=S)Nc1ccc(Cl)c(COC(C)(C)C)c1,syncytia,-,IIIB,14.25 µM
Cn1cccc1C(=S)Nc1ccc(Cl)c(/C=N/OC(C)(C)C)c1,syncytia,RT-Y188L,-,>5.6 µM
CCC1=C(C(=O)c2ccccc2)C(c2cccc(O)c2)NC(=O)N1,p24 / ELISA,-,-,>5 µM
CCOCn1c(Sc2cc(C)cc(C)c2)c(CC)c(=O)[nH]c1=S,syncytia,RT-Y188H,IIIB,8.6 µM
CCOC(=O)c1cc(NC(=S)OC(C)C)ccc1SC,syncytia,RT-V106A,-,15.95 µM
Cc1ccoc1C(=S)Nc1ccc(Cl)c(C(=O)OC(C)C)c1,syncytia,RT-V106A,-,16 µM
CC(NC(=O)c1ccccc1SSc1ccccc1C(=O)NC(C)C(=O)O)C(=O)O,cytopathic effect / XTT,-,IIIB,35.3 µM
Cc1ccc(S(=O)(=O)N(CC(C)C)C[C@@H](O)[C@H](Cc2ccccc2)NC(=O)O[C@@H]2CCOC2)cc1,p24,-,IIIB,<0.101 µM
CC(C)OC(=O)c1cc(NC(=S)c2ccccc2N)ccc1Cl,syncytia,-,IIIB,0.15 µM
Cc1sccc1C(=O)Nc1ccc(Cl)c(OCC=C(Cl)Cl)c1,syncytia,RT-K103N,TIBO R82913-resistant (RT K103N),2 µg/mL
CC(C)OC(=O)c1cc(NC(=S)OC(C)C)ccc1Cl,-,RT-K101E,IIIB,0.025 µM
CCC1=C(C(=O)Nc2ccc(Cl)c(C(=O)OCC(C)C)c2)SCCO1,syncytia,RT-L100I,TIBO-resistant (RT L100I),0.3 µg/mL
Cc1occc1C(=S)Nc1ccc(Cl)c(/C=N/OCc2ccccc2)c1,syncytia,RT-L100I,-,>2.6 µM
Cc1occc1C(=S)Nc1ccc(Cl)c(OCC=C(Cl)Cl)c1,syncytia,RT-V106A,Nevirapine-resistant isolate (RT V106A),0.055 µg/mL
CC1=C(C(=O)Nc2ccc(Cl)c(C(=O)OC3CCCCC3)c2)SCCO1,syncytia,RT-L100I,TIBO-resistant (RT L100I),0.85 µg/mL
Cc1occc1C(=S)Nc1ccc(Cl)c(OC(=O)OC(C)C)c1,syncytia,RT-Y181C,-,0.3 µM
CC1=C(C(=O)Nc2cccc(C(=O)OC(C)C)c2)SCCO1,syncytia,RT-L100I,TIBO-resistant (RT L100I),9 µg/mL
CC1=C(C(=O)Nc2ccc(Cl)c(/C=N/OC(C)(C)C)c2)CCCO1,syncytia,RT-L100I,-,1.3 µM
CCC[C@@H](CCC(=O)O)NC(=O)c1ccccc1SSc1ccccc1C(=O)N[C@@H](CCC)CCC(=O)O,cytopathic effect / XTT,-,IIIB,2.5 µM
CC(C)OC(=O)c1cc(NC(=S)c2ccsc2)ccc1Cl,syncytia,RT-V106A,-,25 µM
Nc1ccc(S(=O)(=O)N(CCC(O)CN(CC2CCCC2)S(=O)(=O)c2ccccc2)CC2CCCC2)cc1,p24,-,IIIB,<1 µM
COc1ccc(S(=O)(=O)N(CC2CCCC2)C[C@@H](O)[C@H](Cc2ccccc2)NC(=O)O[C@@H]2CCOC2)cc1,p24,-,IIIB,<0.1 µM
C/C=C/COc1cc(NC(=S)c2ccn(C)c2C)ccc1Cl,syncytia,-,IIIB,0.058 µM

ECn: concentration that inhibits the pathogen or its effect by n%. Lines come from different laboratories, so protocols vary. a–b is a range or a potency band.